# Genome-wide point mutation profile of HIV-1: non-coding ends

The measurements come from Al-Mawsawi et al. 2014 (doi:10.1186/s12977-014-0124-6).

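Seven fragments of pNL4-3 were mutated by error-prone PCR, and each virus pool was passaged in CEM T cells. Sequencing gave the RC index: frequency after two rounds over frequency in the input plasmid.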

Positions lie in the non-coding 5' end or the 3' LTR of the genome. Changes in the 5' U3 are not copied into viral RNA and those in the 3' R are mostly lost on reverse transcription, so a low index there need not show harm (not discussed in the paper).

A higher RC index is a better tolerated change; approximate classes are lethal up to 0.1, attenuated to 0.2, tolerated above. Input reads are the counts in the plasmid library. An index over 1, which the authors read as above wild type, was rare (1.9% of all changes in the genome). Nucleotide positions follow pNL4-3. Since each clone held several changes (about five per kb), neutral changes can read low.

| base | region | input reads | replication capacity index |
|---|---|---|---|
| C150G | 5' U3 | 170 | 0.0602 |
| A152T | 5' U3 | 470 | 0.0580 |
| T154A | 5' U3 | 224 | 0.0457 |
| T155A | 5' U3 | 221 | 0.0772 |
| G162T | 5' U3 | 291 | 0.0938 |
| A163T | 5' U3 | 183 | 0.0559 |
| G164A | 5' U3 | 279 | 0.0611 |
| T169C | 5' U3 | 196 | 0.0348 |
| A170T | 5' U3 | 385 | 0.0531 |
| G171T | 5' U3 | 377 | 0.353 |
| A173T | 5' U3 | 341 | 0.0500 |
| G174T | 5' U3 | 182 | 0.0750 |
| A175T | 5' U3 | 154 | 0.199 |
| C179A | 5' U3 | 91 | 0.112 |
| A181G | 5' U3 | 220 | 0.0310 |
| A193T | 5' U3 | 277 | 0.0246 |
| C194A | 5' U3 | 65 | 0.105 |
| C197T | 5' U3 | 389 | 0.0438 |
| C207A | 5' U3 | 61 | 0.112 |
| C207T | 5' U3 | 418 | 0.0979 |
| C211G | 5' U3 | 36 | 0.0947 |
| G217T | 5' U3 | 109 | 0.282 |
| C219A | 5' U3 | 163 | 0.0837 |
| A220G | 5' U3 | 243 | 0.0702 |
| A223T | 5' U3 | 340 | 0.0502 |
| G226A | 5' U3 | 195 | 0.297 |
| A228G | 5' U3 | 186 | 0.110 |
| G230T | 5' U3 | 290 | 0.764 |
| A241T | 5' U3 | 180 | 0.0758 |
| G246A | 5' U3 | 141 | 0.0726 |
| G249A | 5' U3 | 382 | 0.0357 |
| A251G | 5' U3 | 141 | 0.556 |
| T256A | 5' U3 | 252 | 0.487 |
| G263A | 5' U3 | 197 | 0.0692 |
| A268T | 5' U3 | 244 | 0.867 |
| A270T | 5' U3 | 152 | 0.314 |
| G271A | 5' U3 | 201 | 0.136 |
| C273A | 5' U3 | 737 | 0.122 |
| C273T | 5' U3 | 347 | 0.172 |
| C275T | 5' U3 | 417 | 0.0573 |
| G279T | 5' U3 | 556 | 0.0860 |
| C280A | 5' U3 | 245 | 0.195 |
| A281T | 5' U3 | 470 | 0.102 |
| T282C | 5' U3 | 638 | 0.140 |
| T283C | 5' U3 | 698 | 0.282 |
| T284A | 5' U3 | 735 | 0.0813 |
| T284C | 5' U3 | 487 | 0.123 |
| C285T | 5' U3 | 397 | 0.105 |
| T292C | 5' U3 | 599 | 0.0798 |
| G294T | 5' U3 | 292 | 0.409 |
| C295A | 5' U3 | 241 | 0.0992 |
| G298T | 5' U3 | 366 | 0.196 |
| A301G | 5' U3 | 248 | 0.0989 |
| G302T | 5' U3 | 286 | 0.129 |
| A307G | 5' U3 | 415 | 0.236 |
| A307T | 5' U3 | 242 | 0.101 |
| C309T | 5' U3 | 242 | 0.355 |
| C310A | 5' U3 | 565 | 0.174 |
| G311A | 5' U3 | 275 | 0.580 |
| T318C | 5' U3 | 252 | 0.341 |
| C320T | 5' U3 | 501 | 0.171 |
| A321G | 5' U3 | 387 | 0.317 |
| A323T | 5' U3 | 512 | 0.335 |
| G328T | 5' U3 | 301 | 0.122 |
| C329G | 5' U3 | 48 | 0.511 |
| C333T | 5' U3 | 354 | 0.139 |
| G337A | 5' U3 | 371 | 0.264 |
| G339A | 5' U3 | 385 | 0.223 |
| T341C | 5' U3 | 258 | 0.570 |
| C344T | 5' U3 | 295 | 0.166 |
| T345C | 5' U3 | 272 | 0.180 |
| A346G | 5' U3 | 241 | 0.153 |
| C347A | 5' U3 | 366 | 0.302 |
| G350A | 5' U3 | 296 | 0.290 |
| G352T | 5' U3 | 107 | 0.344 |
| A353G | 5' U3 | 295 | 0.416 |
| C354A | 5' U3 | 114 | 0.538 |
| C358A | 5' U3 | 77 | 0.637 |
| C358T | 5' U3 | 126 | 0.195 |
| C359G | 5' U3 | 90 | 0.136 |
| G364T | 5' U3 | 273 | 0.539 |
| G366A | 5' U3 | 363 | 0.304 |
| C368A | 5' U3 | 110 | 0.111 |
| C368T | 5' U3 | 382 | 0.289 |
| T371A | 5' U3 | 358 | 0.137 |
| T371C | 5' U3 | 242 | 0.456 |
| C372T | 5' U3 | 169 | 0.218 |
| C373A | 5' U3 | 448 | 0.602 |
| C373G | 5' U3 | 126 | 0.389 |
| G375A | 5' U3 | 193 | 0.127 |
| G375T | 5' U3 | 609 | 0.503 |
| G376A | 5' U3 | 214 | 0.458 |
| G379T | 5' U3 | 497 | 0.148 |
| G380A | 5' U3 | 392 | 0.188 |
| G382T | 5' U3 | 113 | 0.217 |
| G384A | 5' U3 | 246 | 0.150 |
| C386T | 5' U3 | 838 | 0.263 |
| T388C | 5' U3 | 356 | 0.413 |
| G389A | 5' U3 | 270 | 0.227 |
| G395T | 5' U3 | 206 | 0.179 |
| A396G | 5' U3 | 207 | 0.118 |
| A396T | 5' U3 | 461 | 0.798 |
| C397T | 5' U3 | 606 | 0.162 |
| T398A | 5' U3 | 336 | 0.256 |
| T398G | 5' U3 | 78 | 0.157 |
| G399A | 5' U3 | 299 | 0.287 |
| G399T | 5' U3 | 186 | 0.264 |
| G400T | 5' U3 | 208 | 0.413 |
| G402A | 5' U3 | 439 | 0.224 |
| A403G | 5' U3 | 391 | 0.282 |
| G404A | 5' U3 | 454 | 0.243 |
| T405C | 5' U3 | 352 | 0.139 |

Excerpt, the final 6 entries:

base	region	input reads	replication capacity index
G399T	5' U3	186	0.264
G400T	5' U3	208	0.413
G402A	5' U3	439	0.224
A403G	5' U3	391	0.282
G404A	5' U3	454	0.243
T405C	5' U3	352	0.139